Pooled drug test results. Numbers come from NIAID ChemDB, via PubChem.

Shared fields: tests in culture; agent: HIV-1; read by: cytopathic effect / XTT; endpoint: EC50

ECn is the concentration giving n% inhibition of infection, replication or growth. Blank or dashed fields: not listed here. Neighbouring rows are from separate reports. a–b is a range or a potency band.

structure,cells,changes,strain,value
C#CCN(N=O)C(=O)NCCC[C@H](NC(C)=O)C(=O)NCc1ccccc1,CEM-IW + CEM,-,IIIB,>100 µM
COC(=O)CC[C@H](CC#N)NC(=O)c1ccccc1SSc1ccccc1C(=O)N[C@@H](CC#N)CCC(=O)OC,CEM,-,IIIB,5.2 µM
C#CCN(N=O)C(=O)NCCCC[C@H](NC(C)=O)C(=O)NCc1ccccc1,CEM-IW + CEM,-,IIIB,>100 µM
Cc1occc1C(=S)Nc1ccc(Cl)c(/C=N/OC(C)(C)C)c1,CEM + CEM-SS,RT-D67N K70R T215Y K219Q,4xAZT(RT-D67N K70R T215Y K219Q),0.04 µM
O=C(NCCc1ccccc1)Nc1ccccn1,MT-4,-,-,>100 µg/mL
O=C(/C=C/c1ccc(O)cc1)OC[C@@H]1OC(Oc2ccc(C(=O)/C=C/c3ccc(O)c(O)c3)c(O)c2O)[C@@H](O)[C@H](O)[C@H]1O,C8166,-,MN,50 µM
CN(C)C1=C(C#N)/C(=C2/C(C#N)=C(N(C)C)N(c3ccc([N+](=O)[O-])cc3)c3c2n(C)c2ccccc32)c2c(c3ccccc3n2C)N1c1ccc([N+](=O)[O-])cc1,CEM + CEM-SS,RT-Y181C,N119 nevirapine-resistant (RT Y181C),1.01–9.73 µM
CC(C)=CCOc1cc(NC(=S)c2ccsc2C)ccc1Cl,CEMx174 + CEM,-,IIIB,0.008 µM
CNC(=O)N(CCCC[C@H](NC(C)=O)C(=O)NCc1ccccc1)Cc1ccccc1,CEM-IW + CEM,-,IIIB,>100 µM
O=C(NCCc1ccccc1)Nc1nc2c(Cl)cccc2s1,MT-4,-,-,>10 µg/mL
C=CCO/N=C/c1cc(NC(=S)c2ccoc2C)ccc1Cl,CEM + CEM-SS,RT-V179D,NL4-3,0.66 µM
COc1cc(-c2ccc(N=Nc3ccc4c(S(=O)(=O)O)cc(S(=O)(=O)O)c(N)c4c3O)c(OC)c2)ccc1N=Nc1ccc2c(S(=O)(=O)O)cc(S(=O)(=O)O)c(N)c2c1O,CEM + CEM-SS,-,IIIB,0.6 µM
CCC(C)C(NC(=O)c1ccccc1SSc1ccccc1C(=O)NC(C(=O)O)C(C)CC)C(=O)O,MT-4,-,6R (AZT-resistant),0.3 µM
Cc1occc1C(=S)Nc1ccc(Cl)c(C(=O)OCC2CC2)c1,CEM + CEM-SS,-,IIIB,0.02 µM
CC[C@H](C)[C@H](NC(=O)c1ccccc1SSc1ccccc1C(=O)N[C@H](C(=O)O)[C@@H](C)CC)C(=O)O,CEM,-,IIIB,7 µM
CC(C)=CCOc1cc(NC(=S)c2ccoc2C)ccc1Cl,CEM + CEM-SS,-,Isolate NL4-3,0.006 µM
O=C(NCCc1ccccc1)Nc1nncs1,MT-4,-,-,<1 µg/mL
O=C(O)CNC(=O)c1ccccc1SSc1ccccc1C(=O)NCC(=O)O,CEM,-,IIIB,51.3 µM
CCCN(CCCC[C@H](NC(C)=O)C(=O)NCc1ccccc1)C(=O)N(CCCl)N=O,CEM-IW + CEM,-,IIIB,>100 µM
O=C(NCCc1ccccc1)Nc1nc2ccccc2s1,MT-4,-,-,<1 µg/mL
CC(=O)N[C@@H](CCCCN(Cc1ccccc1)C(=O)NCCCl)C(=O)NCc1ccccc1,CEM-IW + CEM,-,IIIB,>100 µM
CC=CCOc1cc(NC(=S)c2ccoc2C)ccc1OC,CEM + CEM-SS,-,RF,0.045 µM
O=C(NCCc1ccccc1)Nc1ncccn1,MT-4,-,-,>100 µg/mL
CC(=O)N[C@@H](CCCNC(=O)NCCCl)C(=O)NCc1ccccc1,CEM-IW + CEM,-,IIIB,>100 µM
O=C(NCCc1ccccc1)Nc1cnccn1,MT-4,-,-,<1 µg/mL
CC(C)C[C@H](NC(=O)c1ccccc1SSc1ccccc1C(=O)N[C@@H](CC(C)C)C(=O)OC(C)(C)C)C(=O)OC(C)(C)C,CEM,-,IIIB,69 µM
NS(=O)(=O)c1ccc(NC(=O)NCCc2ccccc2)cc1,MT-4,-,-,>10 µg/mL
CCCN(CCCC[C@H](NC(C)=O)C(=O)NCc1ccccc1)C(=O)NC,CEM-IW + CEM,-,IIIB,>100 µM
CCCc1cc(=O)oc2c3c(c4c(c12)OC(C)(C)CC4)O[C@@H](C)[C@H](C)[C@@H]3O,CEM + CEM-SS,RT-Y188C,NL4-3,1 µM
Nc1nc(NC2CC2)c2ncn([C@H]3C=C[C@@H](CO)C3)c2n1,C8166,-,RT-K65R L74V M184V,11 µM
CC(=O)N1C(=O)[C@@H](c2ccccc2)NC1=S,MT-4,-,-,>10 µg/mL
CCCN(CCC[C@H](NC(C)=O)C(=O)NCc1ccccc1)C(=O)N(CCCl)N=O,CEM-IW + CEM,-,IIIB,>100 µM
O=C(NCCc1ccccc1)Nc1ccccc1,MT-4,-,-,>100 µg/mL
Cc1ccsc1C(=S)Nc1ccc(Cl)c(C(=O)OC(C(C)C)C(C)C)c1,CEM + CEM-SS,-,RF,0.159 µM
CCCC[C@@H](CC(=O)O)NC(=O)c1ccccc1SSc1ccccc1C(=O)N[C@@H](CCCC)CC(=O)O,CEM,-,IIIB,1.9 µM
CC(=O)c1ccc(C)cc1NC(C(N)=O)c1c(Cl)cccc1Cl,CEM + CEM-SS,RT-Y181C K101E,UC10-resistant (RT Y181C K101E),>1 µM
Cc1occc1C(=S)Nc1ccc(Cl)c(C(=O)OC(C)C)c1,CEM + CEM-SS,-,IIIB,0.01 µM